Measurements reported in PubChem BioAssay AID624099 (ICCB-Longwood, 2012).

- Aim: 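Human genes that papillomavirus E2 requires to repress the HPV18 LCR promoter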 (primary screen)
- Cell system: human C33A cervical carcinoma cells (HPV-negative) stably expressing BPV1 E2 and an HPV18 LCR luciferase reporter
- Reagent: siRNA pool against human genes, 40 nM
- Duration: 72 h
- Measured: 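HPV18 LCR reporter light per well, converted to plate-wise z-scores that exclude control wells, and averaged over triplicate plates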
- Direction: mean z-score and z-score: higher = stronger reporter signal, weaker E2 silencing
- Hit rule: 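Hit if mean z-score reaches 2 and two or more of three replicate z-scores also reach 2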
The deposit covers about 21,000 reagents; below is a random part of them. Of all reagents, 497 (2.4%) are marked active. 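Higher z means weaker E2 silencing; only reporter increases were scored, and knock-downs that hurt cell survival may mask genuine repressor factors.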

For COG4 (component of oligomeric golgi complex 4), the entry reads mean z-score 1.4; z-score, replicate A = 1.33; z-score, replicate B = 1.54; z-score, replicate C = 1.32; inactive.
Silencing of SPMIP10 (sperm microtubule inner protein 10) resulted in: mean z-score -1.75; z-score, replicate A = -1.72; z-score, replicate B = -1.6; z-score, replicate C = -1.94; inactive.
NXPE4 (neurexophilin and PC-esterase domain family member 4) gave mean z-score -1.3; z-score, replicate A = -1.42; z-score, replicate B = -1.42; z-score, replicate C = -1.06; inactive.
After knock-down of LOC105378586, the screen gave mean z-score -0.68; z-score, replicate A = -1; z-score, replicate B = -0.67; z-score, replicate C = -0.38; inactive.
Silencing of EDN1 (endothelin 1) came out at: mean z-score 0.15; z-score, replicate A = 0.12; z-score, replicate B = 0.16; z-score, replicate C = 0.18; inactive.
NAA60 (N-alpha-acetyltransferase 60, NatF catalytic subunit) gave mean z-score -0.43; z-score, replicate A = -0.4; z-score, replicate B = -0.4; z-score, replicate C = -0.49; inactive.
For TTC24 (tetratricopeptide repeat domain 24), the entry reads mean z-score 0.25; z-score, replicate A = 0.13; z-score, replicate B = 0.09; z-score, replicate C = 0.52; inactive.
With knock-down of DENND2B (DENN domain containing 2B), the screen gave mean z-score 0.28; z-score, replicate A = -0.48; z-score, replicate B = 0.31; z-score, replicate C = 1.01; inactive.
Against PDP2 (pyruvate dehydrogenase phosphatase catalytic subunit 2), the values are mean z-score -0.39; z-score, replicate A = -0.18; z-score, replicate B = -0.61; z-score, replicate C = -0.38; inactive.
Against PYCR1 (pyrroline-5-carboxylate reductase 1), the entry reads mean z-score 1.32; z-score, replicate A = 1.5; z-score, replicate B = 1.32; z-score, replicate C = 1.15; inactive.
Knock-down of DNMT3A (DNA methyltransferase 3 alpha) resulted in: mean z-score 0.43; z-score, replicate A = 0.77; z-score, replicate B = 0.54; z-score, replicate C = -0.02; inactive.
PIP (prolactin induced protein) showed mean z-score -1.02; z-score, replicate A = -0.62; z-score, replicate B = -1.02; z-score, replicate C = -1.44; inactive.
ARC (activity regulated cytoskeleton associated protein) scored mean z-score 0.07; z-score, replicate A = 0.2; z-score, replicate B = -0.37; z-score, replicate C = 0.39; inactive.
With knock-down of CLDN6 (claudin 6) the results were mean z-score -0.32; z-score, replicate A = -0.28; z-score, replicate B = -0.22; z-score, replicate C = -0.44; inactive.
After knock-down of AZGP1 (alpha-2-glycoprotein 1, zinc-binding), the screen gave mean z-score -0.25; z-score, replicate A = -0.26; z-score, replicate B = -0.4; z-score, replicate C = -0.09; inactive.
With knock-down of TAC3 (tachykinin precursor 3), the record shows mean z-score 0.2; z-score, replicate A = 0.23; z-score, replicate B = 0.33; z-score, replicate C = 0.04; inactive.
LINC01624 (long independently transcribed non-coding RNA 1624) scored mean z-score -0.33; z-score, replicate A = -0.3; z-score, replicate B = -0.71; z-score, replicate C = 0.04; inactive.
Silencing of ALDH2 (aldehyde dehydrogenase 2 family member) came out at: mean z-score -0.77; z-score, replicate A = -0.64; z-score, replicate B = -0.86; z-score, replicate C = -0.83; inactive.
Silencing of PGLYRP2 (peptidoglycan recognition protein 2) gave: mean z-score -0.78; z-score, replicate A = -1.03; z-score, replicate B = -0.64; z-score, replicate C = -0.68; inactive.
For ARMC1 (armadillo repeat containing 1), the values are mean z-score -0.45; z-score, replicate A = -0.31; z-score, replicate B = -0.29; z-score, replicate C = -0.74; inactive.
Knock-down of PDZD8 (PDZ domain containing 8) came out at: mean z-score 0.68; z-score, replicate A = 0.36; z-score, replicate B = 0.76; z-score, replicate C = 0.92; inactive.
